Experimental data: publication PMC5025708, “Structural Basis of Host Autophagy-related Protein 8 (ATG8) Binding by the Irish Potato Famine Pathogen Effector Protein PexRD54*^([image sbox.jpg])^♦” (The Journal of Biological Chemistry, 2016)

Experiments:
[1] = molecular target: T1, ATG8CL-GST-His fusion protein (potato, UniProt M1C146 1-119); assay: peptide or protein array
T1 construct: source: E. coli, purified (Ni-NTA, gel filtration)
T1 sequence: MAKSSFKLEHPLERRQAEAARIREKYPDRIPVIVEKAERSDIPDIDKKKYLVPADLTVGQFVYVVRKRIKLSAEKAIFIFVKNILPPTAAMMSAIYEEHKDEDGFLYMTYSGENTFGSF

[2] = molecular target: PexRD54 effector domain (residues Val-92 to Val-381), wild type (Phytophthora infestans, UniProt D0NBE6 92-381); assay: SPR
[3] = molecular target: T2, ATG8CL* (Ser-5 to Asn-114) (potato, UniProt M1C146 5-114); assay: crystal structure
T2 sequence: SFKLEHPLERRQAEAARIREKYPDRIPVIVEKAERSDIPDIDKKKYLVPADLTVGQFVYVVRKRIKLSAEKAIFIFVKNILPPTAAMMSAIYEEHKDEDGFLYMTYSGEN

B1: 10-mer peptide of PexRD54 (Lys-372–Val-381), wild-type sequence (peptide)
peptide: KPLDFDWEIV
modifications: anchored to the membrane at the N terminus, free C terminus
B1: binds [1].

B2: ATG8CL (Met-1 to Phe-119) with a non-cleavable C-terminal His6 tag (natural protein)
chain: T1 sequence
notes: also called His-tagged ATG8CL; pOPINE-ATG8CL; not shown: His6, C-terminal, kept
With B2 the Kd [2] was 388 nM.

B3: PexRD54 C-terminal pentapeptide (Asp-377–Trp-378–Glu-379–Ile-380–Val-381) (peptide)
peptide: DWEIV
B3: binds [3].
